Measured values from several laboratories, pooled; numbers as filed in NIAID ChemDB.

Shared fields: whole-cell or culture tests

Percent inhibition refers to the dose given; in toxicity tests it is the harm to the cells.

smiles	read by	read-out	tested at	cell line	strain or isolate	organism	result
O=S(=O)(O)c1cccc2c(O)cccc12	cytopathic effect	inhibition	10 µg/mL	Human amnion AV3 cells		Rhinovirus	0%
CC1C(c2ccccc2)OC(c2ccccc2)CC12NC(=S)NN2c1ccccc1		MIC				Rhizopus spp.	25 µg/mL
Cc1ccc(Cn2cnc3c(N(C)C)nc(C(F)(F)F)nc32)cc1	plaque count	inhibition	5 µM	M-HELA	Serotype 16	Rhinovirus	12%
Cc1cc(CCCOc2c(C)cc(-c3noc(C(F)(F)F)n3)cc2C)on1	cytopathic effect / visual reading	EC50		OHIO HELA-I	Isolate 3	Rhinovirus	0.02 µg/mL
Cc1cc(CCCCCOc2cc(Cl)c(-c3nnc(C)o3)c(Cl)c2)on1		MIC50			serotype 2 1A 1B 6 14 21 22 15 25 30 50 67 89 86 41	Rhinovirus	0.14 µg/mL
O=S(=O)(O)c1ccc(N=Nc2c(O)ccc3cc(S(=O)(=O)O)ccc23)cc1	cytopathic effect	inhibition	10 µg/mL	Human embryonic lung cells		Rhinovirus	10%
CCC1C(c2ccccc2)OC(c2ccccc2)CC12NC(=S)NN2c1ccccc1		MIC				Rhizopus spp.	12.5 µg/mL
Cc1cc(CCCCCOc2cc(Cl)c(-c3nnco3)c(Cl)c2)on1		MIC80			Serotype 14	Rhinovirus	2.02 µg/mL
CN(C)c1nc(C(F)(F)F)nc2c1ncn2Cc1ccc(Cl)cc1Cl	plaque count	inhibition	8 µM	M-HELA	Serotype 19	Rhinovirus	40%
S=C1NNC2(CC(c3ccccc3)OC(c3ccccc3)C2)N1		MIC				Rhizopus spp.	100 µg/mL
Cc1cc(Cl)ccc1Cn1cnc2c(N(C)C)nc(C(F)(F)F)nc21	plaque count	EC50		M-HELA	Serotype 21	Rhinovirus	>8 µM
Nc1ccccc1S(=O)(=O)O	cytopathic effect	inhibition	10 µg/mL	Human embryonic lung cells		Rhinovirus	10%
Fc1cccc(Cn2cnc3c(Nc4cccc(F)c4)nc(C(F)(F)F)nc32)c1	plaque count	EC50		M-HELA	Serotype 13	Rhinovirus	55 µM
Nc1c(S(=O)(=O)[O-])cc2cc(S(=O)(=O)[O-])ccc2c1O	cytopathic effect	inhibition	50 µg/mL	Human amnion AV3 cells		Rhinovirus	0%
Cc1cc(CCCCCOc2c(Cl)cc(C3=NCCO3)cc2Cl)on1	plaque count	EC50		HeLa	TYPE 61	Rhinovirus	0.067 µg/mL
O=S(=O)(O)c1cc(O)c2c(O)cc(S(=O)(=O)O)cc2c1	cytopathic effect	inhibition	5 µg/mL	Human amnion AV3 cells		Rhinovirus	0%
CCO/N=C/c1ccc(OCCC2CCN(c3ccc(Cl)nn3)CC2)cc1	neutral red	EC50		KB	56822 (ICAM-1 receptor group 42)	Rhinovirus	0.103 µM
O=C(Nc1ccc2c(O)c(N=Nc3ccc(N=Nc4ccc(S(=O)(=O)O)cc4)cc3)c(S(=O)(=O)O)cc2c1)c1ccccc1	cytopathic effect	inhibition	10 µg/mL	Human embryonic lung cells		Rhinovirus	0%
Cc1cc(CCCOc2cc(Cl)c(-c3nnc(C)o3)c(Cl)c2)on1		MIC80			serotype 2 1A 1B 6 14 21 22 15 25 30 50 67 89 86 41	Rhinovirus	0.35 µg/mL
CN(C)c1nc(C(F)(F)F)nc2c1ncn2Cc1ccccc1	plaque count	EC50		M-HELA	Serotype 31	Rhinovirus	>8 µM
O=S(=O)([O-])c1cc(NS(=O)(=O)c2ccccc2)c2c(S(=O)(=O)[O-])cc(S(=O)(=O)[O-])cc2c1	cytopathic effect	inhibition	50 µg/mL	Human embryonic lung cells		Rhinovirus	80%

A second listing of 3 rows from above:

| smiles | read by | read-out | tested at | cell line | strain or isolate | organism | result |
|---|---|---|---|---|---|---|---|
| Fc1cccc(Cn2cnc3c(Nc4cccc(F)c4)nc(C(F)(F)F)nc32)c1 | plaque count | EC50 |  | M-HELA | Serotype 13 | Rhinovirus | 55 µM |
| S=C1NNC2(CC(c3ccccc3)OC(c3ccccc3)C2)N1 |  | MIC |  |  |  | Rhizopus spp. | 100 µg/mL |
| CN(C)c1nc(C(F)(F)F)nc2c1ncn2Cc1ccccc1 | plaque count | EC50 |  | M-HELA | Serotype 31 | Rhinovirus | >8 µM |

MIC50, MIC90 and the like: level of inhibition, or share of isolates inhibited. ECn: concentration that inhibits the pathogen or its effect by n%. Rows are shuffled and stem from different studies. An empty or dashed field is not shown.